Compound potency records, mixed from different reports. Data source: NIAID ChemDB in PubChem.

All rows: growth or infection tests; organism: Cryptococcus neoformans

Two numbers with a dash give a range or band. ECn is the concentration giving n% inhibition of infection, replication or growth. Conditions beyond the fields shown may differ between rows. MIC50, MIC90 and the like: level of inhibition, or share of isolates inhibited. An empty or dashed field is not shown.

SMILES	read by	strain or isolate	measure	value
CC(C)(C)C1CCC(CN2C3=NC[C@H](CC4CCCCC4)N3C[C@H]2CC2CCCCC2)CC1	-	ATCC 32045	MIC	8–16 µg/mL
CCOC(=O)c1cnc(NCCCCNc2ccnc3cc(Cl)ccc23)nc1C	-	ATCC 62066	MIC99	8 µg/mL
CCOC(=O)c1sc(SC)c(C#N)c1N	-	CN-17	MIC	>100 µg/mL
CC(C)=CCC/C(C)=C/CN(C/C=C(\C)CCC=C(C)C)C(=N)N	-	ATCC 90012	MIC	250 µg/mL
CC(Cn1ccnc1)c1ccc(F)cc1	-	-	MIC	100 µg/mL
CCC(O)/C=C/C=C/C=C/C(=O)OC[C@H]1O[C@@H](O[C@H]2[C@H](OC(=O)/C=C/C=C/CC(O)/C(C)=C/C=C/CCC(C)CC)[C@@H](O)[C@@]3(OCc4cc(O)cc(O)c43)O[C@@H]2CO)[C@H](O)[C@@H](O)[C@H]1O	-	D49	MIC	>100 µg/mL
OC(Cn1cncn1)(Cn1nnc(CCN2CCN(c3cccc(C(F)(F)F)c3)CC2)n1)c1ccc(F)cc1F	-	LA314	MIC	>16 µg/mL
CCCCCOc1ccc(-c2ccc(-c3ccc(C(=O)N[C@H]4C[C@@H](O)[C@@H](O)NC(=O)[C@@H]5[C@@H](O)[C@@H](C)CN5C(=O)[C@H]([C@H](C)O)NC(=O)[C@H]([C@H](O)[C@@H](O)c5ccc(O)cc5)NC(=O)[C@@H]5C[C@@H](O)CN5C(=O)[C@H]([C@H](C)O)NC4=O)cc3)cc2)cc1	-	10 strains	MIC90	>6 µg/mL
CCOC(=O)c1sc(SC)cc1-c1ccc(Br)cc1	-	CN-17	MIC	>100 µg/mL
Oc1cccc(C=Nc2ccccc2O)c1	-	WP	MIC99	4 µg/mL
CC(C)(C)C1CCC(CN2C3=NC[C@@H](C4CCCCC4)N3C[C@@H]2C2CCCCC2)CC1	-	ATCC 32045	EC50	3.7 µg/mL
COC1CC2CCC(C)C(O)(O2)C(=O)C(=O)N2CCCCC2C(=O)OC(C(C)CC2CCC(O)C(OC)C2)CC(=O)C(C)/C=C(\C)[C@@](O)(c2ccc(C)s2)C(OC)C(=O)C(C)CC(C)/C=C/C=C/C=C/1C	-	TOR1-1	MFC	>100 µg/mL
OC(CN1CCN(c2ccc(OCc3ccncc3)cc2)CC1)(Cn1cncn1)c1ccc(F)cc1F	-	201309	MIC80	1 µg/mL
O=[N+]([O-])c1ccc(C=Nc2ccccc2O)cc1	-	WP	MIC99	11.3 µg/mL
CCOC(=O)c1sc2cc(-c3ccc(Br)cc3)oc(=O)c2c1N	-	CN-17	MIC	>100 µg/mL
C[C@H](n1nnnc1CCN1CCN(Cc2ccccc2)CC1)[C@](O)(Cn1cncn1)c1ccc(F)cc1F	-	LA314	MIC	>16 µg/mL
COc1c(O)c2c(=O)cc(OC)c3c4c(OC)cc(=O)c5c(O)c(OC)c6c(c(c1CC(C)(O)C6C(C)=O)c23)c54	-	-	MIC	>100 µg/mL
CCCCCCC(Cn1ccnc1)c1ccc(Cl)cc1	-	-	MIC	<1 µg/mL
CCC(C)n1ncn(-c2ccc(N3CCN(c4ccc(OC[C@H]5CO[C@](Cn6cncn6)(c6ccc(Cl)cc6Cl)O5)cc4)CC3)cc2)c1=O	broth dilution	-	MIC50	0.06 µg/mL
CC(N1CCN(c2ccc(-n3cnnn3)cc2)C1=O)[C@](O)(Cn1cncn1)c1ccc(F)cc1F	-	14 strains	MIC90	0.25 µg/mL
N=C(N)c1ccc(OCCCC(O)COc2ccc(C(=N)N)cc2)cc1	-	167.95	MFC	0.78 µg/mL
COc1cc(O)c2c(c1)C(=O)c1c(cc3c(c1O)-c1c(cc(C)c(C(=O)NCC(=O)O)c1O)[C@H](O[C@@H]1O[C@H](C)[C@H](N)[C@H](O[C@@H]4OC[C@@H](O)[C@H](O)[C@H]4O)[C@H]1O)[C@H]3O)C2=O	-	IAM 4514	MIC	0.8 µg/mL
C=CCN(CC=C)C(C)C(O)(Cn1cncn1)c1ccc(F)cc1F	-	KC-201	MIC	0.1 µg/mL
OC(Cn1cncn1)(Cn1nnc(CCN2CCN(c3ccc(F)cc3)CC2)n1)c1ccc(F)cc1F	-	LA314	MIC	>16 µg/mL
C[C@@H](n1cnc2cc(Cl)ccc2c1=O)[C@](O)(Cn1cncn1)c1ccc(F)cc1F	-	Isolate 158.03	MFC	20 µg/mL
NCCNC(=O)C1=Nc2ccc(NC(=O)C3=Nc4ccc(C(=O)Nc5ccc6[nH]c(C(=O)NCCN)cc6c5)cc4C3)cc2C1	-	Serotype B	MIC	4 µg/mL
Nc1[nH]c(=O)ncc1F	-	12 strains	MIC50	8 µg/mL
Nc1ncccc1-c1cc(Cc2ccc(COc3ccccn3)cc2)no1	broth dilution	-	MIC50	0.13 µg/mL
Fc1ccc(CC(Cc2ccc(-c3ccccc3)cc2)n2ccnc2)c(F)c1	-	-	MIC	5.5 µM
C=C1CO[C@H]2[C@@H](C)OC(OC[C@@]34C[C@H]5[C@H](C)CC[C@@H]5[C@@]5(C=O)C[C@@H]3C=C(C(C)C)[C@@]45C(=O)O)C[C@@H]12	-	15 strains (serotype B)	Mean MIC	0.833 µg/mL
CC(C)(C)c1ccc(CC(Cc2ccc(-c3ccccc3)cc2)n2ccnc2)cc1	-	-	MFC	33 µM
CC(C)=CCC/C(C)=C/CN=C(N)NC/C=C(\C)CCC=C(C)C	-	ATCC 90012	MIC	250 µg/mL
CC[C@@H]([C@H](C)O)n1ncn(-c2ccc(N3CCN(c4ccc(OC[C@@H]5CO[C@@](Cn6cncn6)(c6ccc(F)cc6F)C5)cc4)CC3)cc2)c1=O	-	T-1	MIC	0.125 µg/mL
COc1cc(O)c2c(c1)C(=O)c1c(cc3c(c1O)-c1c(cc(C)c(C(=O)NC(C)C(=O)O)c1O)[C@H](OC1OC(C)C(N(C)C)C(OC4OCC(O)C(O)C4O)C1O)[C@H]3O)C2=O	-	CS-01	MIC	1.6 µg/mL
Clc1ccc(CC(Cc2ccc(-c3ccccc3)cc2)n2ccnc2)c(Cl)c1	-	-	MFC	33 µM
CCCC(C)C(Cn1ccnc1)c1ccc(Cl)cc1Cl	-	-	MIC	<1 µg/mL
Nc1[nH]c(=O)ncc1F	-	316	MIC	8 µg/mL
Oc1ccccc1C=Nc1ccccc1O	broth dilution	ATCC 24067	MIC	5.7 µg/mL
CCCCCCC(Cn1ccnc1)c1ccccc1Br	-	-	MIC	10 µg/mL
CO/N=C(/N)c1ccc(-c2ccc(-c3ccc(/C(N)=N\OC)cc3)o2)cc1	-	H99	MIC80	>100 µg/mL
CC(C)(C)C1CCC(CN2C3=NC[C@H](CC4CCCCC4)N3C[C@@H]2C2CCCCC2)CC1	-	ATCC 32045	EC50	2.3 µg/mL
CC(N1CCCCC1)C(O)(Cn1cncn1)c1ccc(F)cc1F	-	KC-201	MIC	0.78 µg/mL
CCOC(=O)c1sc(SC)c(C#N)c1O	-	CN-17	MIC	>100 µg/mL
NC(=NC1CCCC1)c1ccc(-c2ccc(-c3ccc(C(N)=NC4CCCC4)cc3)o2)cc1	-	H99	MIC	0.78 µg/mL
C=C(C)[C@@H]1CC[C@]2(C(=O)O)CC[C@]3(C)[C@H](CC[C@@H]4[C@@]5(C)CC[C@H](O)C(C)(C)[C@@H]5CC[C@]43C)[C@@H]12	-	-	MIC	>25 µg/mL
CCn1c2c(c3ccccc31)C(=O)c1ncc(C)cc1C2=O	-	-	MIC	>200 µg/mL
CC(C)=CCc1c(O)ccc2oc3cc(O)cc(O)c3c(=O)c12	-	-	MIC	>25 µg/mL
Fc1ccc(CC(Cc2ccc(-c3ccccc3)cc2)n2ccnc2)cc1	-	-	MIC	5.5 µM
CCN1C2=NC[C@@H](CC3CCCCC3)N2C[C@@H]1Cc1ccccc1	-	ATCC 32045	EC50	37.7 µg/mL
Oc1ccccc1N=Cc1cccc(O)c1O	-	28JF	MIC99	4 µg/mL
COC1CC2CCC(C)C(O)(O2)C(=O)C(=O)N2CCCCC2C(=O)OC(C(C)CC2CCC(O)C(OC)C2)CC(=O)C(C)/C=C(\C)C(O)[C@@](OC)(N(O)C(=O)OCC(C)C)C(=O)C(C)CC(C)/C=C/C=C/C=C/1C	-	WILD TYPE	MFC	>100 µg/mL
Nc1[nH]c(=O)ncc1F	-	2a	MIC	0.5 µg/mL
C1CCC(C[C@H]2CN3C(=NC[C@H]3C3CCCCC3)N2CCC23CC4CC(CC(C4)C2)C3)CC1	-	ATCC 32045	EC50	2.6 µg/mL
Cn1nc(Cc2ccc(Cl)cc2)c2ccccc2c1=O	broth dilution	Clinical isolate (IM 031631)	MFC	125 µg/mL
O=c1c2cccc(O)c2oc2cc(O)cc(O)c12	-	-	MIC	>25 µg/mL
C[C@H]([C@](O)(Cn1cncn1)c1ccc(F)cc1F)S(C)(=O)=O	-	R717 (AZOLE-R)	MIC	10 µM
CC(C)N=C(N)c1ccc2nc(-c3ccc(CCc4ccc(-c5nc6ccc(C(N)=NC(C)C)cc6[nH]5)cc4)cc3)[nH]c2c1	-	114.95	MIC80	0.19 µg/mL
CCOC(=O)c1c(C)nc(OCCCNc2ccnc3cc(Cl)ccc23)nc1-c1ccccc1	-	LMM 820	MIC99	8 µg/mL
Fc1ccccc1CC(Cc1ccc(-c2ccccc2)cc1)n1ccnc1	-	-	MIC	5.5 µM
CCCCCCC(Cn1ccnc1)c1ccccc1Cl	-	-	MIC	<1 µg/mL
CC(C)=CCc1c(O)cc(O)c2oc3cc(O)cc(O)c3c(=O)c12	-	-	MIC	>25 µg/mL
C1CCC(C[C@H]2CN3C(=NC[C@@H]3C3CCCCC3)N2CCC23CC4CC(CC(C4)C2)C3)CC1	-	ATCC 32045	MIC	16–32 µg/mL
Oc1ccccc1N=Cc1ccc2c(c1)OCO2	-	96806	MIC99	5.7 µg/mL
CCCCCCCCOc1ccc(C(=O)NC2C[C@@H](O)[C@@H](O)NC(=O)C3[C@@H](O)[C@@H](C)CN3C(=O)C(C(C)O)NC(=O)C([C@H](O)[C@@H](O)c3ccc(O)cc3)NC(=O)C3C[C@@H](O)CN3C(=O)C(C(C)O)NC2=O)cc1	-	12 strains	MIC90	>40 µg/mL
CC(Cn1ccnc1)c1ccc(Cl)cc1	-	-	MIC	10 µg/mL
Oc1ccccc1N=Cc1ccc(F)cc1	broth dilution	GM	MIC	5.8 µg/mL
CC(C)CC(Cn1ccnc1)c1ccc(Cl)cc1Cl	-	-	MIC	<1 µg/mL
OC(Cn1cncn1)(Cn1nnc(CCN2CCN(Cc3ccccc3)CC2)n1)c1ccc(F)cc1F	-	LA314	MIC	>16 µg/mL
N=C(N)c1ccc(NCCCNc2ccc(C(=N)N)cc2[N+](=O)[O-])c([N+](=O)[O-])c1	-	114.95	MFC	12.5 µg/mL
CCCCCCCC(Cn1ccnc1)c1ccc(Br)cc1	-	-	MIC	<1 µg/mL

7 of the rows above, restated:

SMILES,read by,strain or isolate,measure,value
C=C1CO[C@H]2[C@@H](C)OC(OC[C@@]34C[C@H]5[C@H](C)CC[C@@H]5[C@@]5(C=O)C[C@@H]3C=C(C(C)C)[C@@]45C(=O)O)C[C@@H]12,-,15 strains (serotype B),Mean MIC,0.833 µg/mL
CCOC(=O)c1sc(SC)c(C#N)c1O,-,CN-17,MIC,>100 µg/mL
CC(Cn1ccnc1)c1ccc(Cl)cc1,-,-,MIC,10 µg/mL
CC(C)=CCc1c(O)ccc2oc3cc(O)cc(O)c3c(=O)c12,-,-,MIC,>25 µg/mL
CCCCCCC(Cn1ccnc1)c1ccccc1Br,-,-,MIC,10 µg/mL
CCOC(=O)c1c(C)nc(OCCCNc2ccnc3cc(Cl)ccc23)nc1-c1ccccc1,-,LMM 820,MIC99,8 µg/mL
OC(Cn1cncn1)(Cn1nnc(CCN2CCN(Cc3ccccc3)CC2)n1)c1ccc(F)cc1F,-,LA314,MIC,>16 µg/mL